For at least one entry, the source does not settle the construct or the ends of the probe.
Assays:
[1] = target: T1, HicB (HicB-His) (Neisseria gonorrhoeae FA1090) (UniProt Q5F6D2); assay: DNase I footprinting; settings: 14 bp protected, 3 bp upstream of putative -35; recombinant protein; label: FAM (forward primer), HEX (reverse primer); probe letters rebuilt from the primers and the genome
T1 sequence: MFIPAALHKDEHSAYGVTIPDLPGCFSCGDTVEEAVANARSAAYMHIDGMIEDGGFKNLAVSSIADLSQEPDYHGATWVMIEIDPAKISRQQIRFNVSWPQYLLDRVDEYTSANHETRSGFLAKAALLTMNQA

[2] = target: T1, HicB (HicB-His) (Neisseria gonorrhoeae FA1090); assay: EMSA; settings: 10 ug HicB, 100x unlabeled norB probe as specific competitor; EMSA: 20 mM HEPES pH 7.6, 1 mM EDTA, 10 mM (NH4)2SO4, 1 mM DTT, 0.2% Tween-20, 30 mM KCl, 1.25 ng/uL calf thymus DNA, 30 min at 30 C; recombinant protein; label: DIG; probe letters rebuilt from the primers and the genome

Sequence	binding result [1]	binding result [2]
GCAGTAGTTGCAGGGAAGGGTGTAAAAAGCCCGCATAACGCGGGCGGTCTTGAGGGCTGTCAGCCGCAGGCAAAGTTTCTGATGATTTTGCCTTCGCTTCGGTTATCGGCAAGCTGTATGCCCTGTTCCTCCAGGTCGCCCGATACGTCAAGCAATGCCTTTTCTTGTGCCTTGTCGGGA (double strand) [hicAB promoter footprinting probe]	binds	–
AGCTTCTTGTACTGTCCCATTTTGAGAGCTCCTTTTAATAAATCAGTTGTTTAAAATTCACAAAATATGAATGTTAAAGATTGTAGCATGGTTTACCGCGCAAATAAACATTTGTTCAAACAAACTCACATATAGAACAAATACATATATGATAATAACTATCATTATTCTTTACTCGGAAATTGCCCTGCCTTTGCCTGCTCTGCCGGAGCCCCTAGCAAATCAGCCTATTCATTGTAATTTTTAGTAGTTATAAAGTATTAGAAGCGTCATTTTAAGTTCATATTTTATGAATTATTTGACTTAAATTAAAATGCCCGCAATGGGACAACCGCATAATCACACCAAGTTCTTAACTAATCCCCCCTACTTTTCTTACAAAAGGAA (double strand) [norB promoter EMSA probe]	–	binds

Reference: paper PMC12421842
